Data: publication PMC9698663, “Testing Serum Albumins and Cyclodextrins as Potential Binders of the Mycotoxin Metabolites Alternariol-3-Sulfate, Alternariol-9-Monomethylether and Alternariol-9-Monomethylether-3-Sulfate” (International Journal of Molecular Sciences, 2022)
Where a name gives a salt, the structure may show the parent alone.

Experiments:
[1] = Extraction of mycotoxins from buffer by γ-CD bead polymer; conditions: GBP 10 mg/mL; mycotoxin 5 μM; sodium acetate buffer 0.05 M, pH 5.0; 40 min
[2] = Extraction of mycotoxins from buffer by β-CD bead polymer; conditions: BBP 10 mg/mL; mycotoxin 5 μM; sodium acetate buffer 0.05 M, pH 5.0; 40 min

Row | Compound | mycotoxin extracted by GBP [1] | mycotoxin removed from the buffer by BBP [2]
1 | Cc1cc(O)cc2oc(=O)c3c(O)cc(O)cc3c12 [AOH, Alternariol] | approximately 90% | approximately 95%
2 | COc1cc(O)c2c(=O)oc3cc(OS(=O)(=O)O)cc(C)c3c2c1 [AMS, alternariol-9-monomethylether-3-sulfate ammonium salt] | approximately 90% | approximately 95%
3 | Cc1cc(OS(=O)(=O)O)cc2oc(=O)c3c(O)cc(O)cc3c12 [AS, Alternariol-3-sulfate ammonium salt] | approximately 90% | approximately 95%
4 | COc1cc(O)c2c(=O)oc3cc(O)cc(C)c3c2c1 [AME, alternariol-9-monomethylether] | approximately 90% | approximately 95%
